# Literature values as cited in patent publication US20240350659A1, “COMPOSITIONS AND METHODS FOR BIMODAL ANTI-VIRAL COMBINATION THERAPY” (priority 2021, published 2024).
# System: SARS-COV-2
# Conditions: WHO Solidarity Trial; cited from earlier work
molecule,measurement,value
"interferon beta-1a: repurposed anti-viral drug in the WHO Solidarity Trial (protein, UniProt P01574 22-187, looked up) Interferon beta: MSYNLLGFLQRSSNFQCQKLLWQLNGRLEYCLKDRMNFDIPEEIKQLQQFQKEDAALTIYEMLQNIFAIFRQDSSSTGWNETIVENLLANVYHQINHLKTVLEEKLEKEDFTRGKLMSSLHLKRYYGRILHYLKAKEYSHCAWTIVRVEILRNFYFINRLTGYLRN",effect on hospitalized patients with Covid-19,little or no effect
